Data as given in PubChem BioAssay AID1224833 (University of Georgia, 2016)
Aim: 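Human genes whose knock-down alters rotavirus replication in monkey cells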 (primary screen). Cell system: monkey MA104 kidney cells. Knock-down reagent: siRNA pool against human genes, 50 nM. Duration: 48 h knock-down before infection; read 24 h after infection. Treatment: infection with rotavirus strain RV3 two days after transfection; infectious dose for this stage not given. Detection: 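z-score of rotavirus antigen signal per well, from a fluorescent immunoassay, relative to non-targeting control wells on the same plate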. Scale: z-score vs non-targeting control: higher = more rotavirus replication than with non-targeting control. Rule for the call: In these data the active calls have z-score vs non-targeting control at about -1 or lower, or at about 1 or higher. Calls: active = z-score beyond 1 either way; inactive = z-score within 1 of zero.
Shown is one part, drawn at random, of about 12,000 deposited reagents. Of all reagents, about 5,600 (46%) were called active. 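Active calls cover z-scores past 1 in both directions, so they include lowered as well as raised rotavirus replication.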

The first 2 entries, ahead of the listing:
PLEKHA8 (pleckstrin homology domain containing A8) [SID329581715] — z-score vs non-targeting control = 2.24; Call = active
TENT5B (terminal nucleotidyltransferase 5B) [SID329582273] — z-score vs non-targeting control = 0.87; Call = inactive

Results, from the start:
PLEKHA8 (pleckstrin homology domain containing A8) [SID329581715] — z-score vs non-targeting control = 2.24; Call = active
TENT5B (terminal nucleotidyltransferase 5B) [SID329582273] — z-score vs non-targeting control = 0.87; Call = inactive
PSENEN (presenilin enhancer, gamma-secretase subunit) [SID329579904] — z-score vs non-targeting control = 0.974; Call = inactive
VWC2 (von Willebrand factor C domain containing 2) [SID329584257] — z-score vs non-targeting control = 1.15; Call = active
ATE1 (arginyltransferase 1) [SID329577536] — z-score vs non-targeting control = 1.76; Call = active
PINX1 (PIN2 (TERF1) interacting telomerase inhibitor 1) [SID329579505] — z-score vs non-targeting control = -0.187; Call = inactive
TATDN2 (TatD DNase domain containing 2) [SID329576801] — z-score vs non-targeting control = 0.436; Call = inactive
AIF1 (allograft inflammatory factor 1) [SID329572732] — z-score vs non-targeting control = -2.27; Call = active
GAB1 (GRB2 associated binding protein 1) [SID329573705] — z-score vs non-targeting control = 3.97; Call = active
CRNN (cornulin) [SID329578788] — z-score vs non-targeting control = -1.77; Call = active
BET1L (Bet1 golgi vesicular membrane trafficking protein like) [SID329578994] — z-score vs non-targeting control = -0.346; Call = inactive
ITGAM (integrin subunit alpha M) [SID329574189] — z-score vs non-targeting control = -0.477; Call = inactive
NOL6 (nucleolar protein 6) [SID329580747] — z-score vs non-targeting control = 0.151; Call = inactive
LRRTM2 (leucine rich repeat transmembrane neuronal 2) [SID329578288] — z-score vs non-targeting control = -0.797; Call = inactive
GIT2 (GIT ArfGAP 2) [SID329576810] — z-score vs non-targeting control = -2.7; Call = active
TAF15 (TATA-box binding protein associated factor 15) [SID329576014] — z-score vs non-targeting control = -1.7; Call = active
E2F1 (E2F transcription factor 1) [SID329573469] — z-score vs non-targeting control = -2.01; Call = active
TLN1 (talin 1) [SID329575658] — z-score vs non-targeting control = -1.35; Call = active
HAPLN1 (hyaluronan and proteoglycan link protein 1) [SID329573260] — z-score vs non-targeting control = -1.17; Call = active
